Pooled drug test results. Numbers come from NIAID ChemDB, via PubChem.

All rows: toxicity to cultured cells; measure: CC50

CCn is the concentration with n% toxicity to the cells. Blank or dashed fields: not listed here. Rows are shuffled and stem from different studies.

C=C[C@@]1(C)CC(=O)[C@]2(O)[C@@]3(C)[C@@H](O)CCC(C)(C)[C@@H]3[C@H](O)[C@H](OC(C)=O)[C@@]2(C)O1 ; cells: n4mBid ; method: luminescence ; value: >30 µM
CC(C)CN(C[C@@H](O)[C@H](Cc1ccccc1)NC(=O)O[C@H]1CCOC1)S(=O)(=O)c1ccc(N)cc1 ; cells: TM-31 ; method: MTT ; value: >100 µM
C[C@@H]1[C@@H](NC(=O)/C=C/C=C/c2ccc3c(c2)OCO3)C[C@@H](C)C(C)(C)[C@H]1C ; cells: HEK293T ; method: MTT ; value: 249.8 µM
CC(C)(C)NC(=O)[C@@H]1CN(Cc2cccnc2)CCN1C[C@@H](O)C[C@@H](Cc1ccccc1)C(=O)N[C@H]1c2ccccc2C[C@H]1O ; cells: HCT-8 ; value: >1000 µg/mL
CC(C)OC(=O)[C@H](C)N[P@](=O)(OC[C@H]1O[C@@H](n2ccc(=O)[nH]c2=O)[C@](C)(F)[C@@H]1O)Oc1ccccc1 ; cells: RFP-NLS-IPS ; value: >10 µM
CC(C)[C@H](NC(=O)OCc1cccnc1)C(=O)N[C@@H](Cc1ccccc1)[C@@H](O)[C@@H](O)[C@H](Cc1ccccc1)NC(=O)OC(C)(C)C ; cells: H9 ; method: trypan blue ; value: 45 µM
CN(C)CCCNc1ccc(C(=O)CCCN2CCC(O)(c3ccc(Cl)cc3)CC2)cc1 ; cells: COSA5 ; value: 200 µM
O=C(O)/C=C/c1ccc(O)c(O)c1 ; cells: HEL ; value: 123 µg/mL
COc1cc([C@@H]2c3cc4c(cc3[C@H](OC(C)=O)[C@@H]3COC(=O)[C@@H]23)OCO4)cc(OC)c1OC ; cells: MEL-28 ; value: 0.55 µM
COc1cc(O)c2c(c1)OC(c1ccc(O)cc1)CC2=O ; cells: LLC-MK2 ; method: MTT ; value: 25.97 µg/mL
CN[C@H]1C[C@@H]2O[C@](C)([C@H]1OC)n1c3ccccc3c3c4c(c5c6ccccc6n2c5c31)C(=O)NC4 ; cells: Akata ; method: MTS ; value: 0.004 µM
O=C(CCCN1CCC(O)(c2cccc(NC3CCCCC3)c2)CC1)c1ccc(F)cc1 ; cells: COSA5 ; value: 10 µM
CCOC(=O)c1ccc2nc(-c3ccc(OC(F)(F)F)cc3)[nH]c2c1 ; cells: Vero cell ; method: MTT ; value: >62.5 µg/mL
COc1cc([C@@H]2c3cc4c(cc3[C@H](OC(C)=O)[C@@H]3COC(=O)[C@H]23)OCO4)cc(OC)c1O ; cells: MEL-28 ; value: 0.23 µM
CCOC(=O)c1ccc2nc(-c3ccc(Br)cc3)[nH]c2c1 ; cells: Vero cell ; method: MTT ; value: >62.5 µg/mL
CC(C)Nc1cccnc1N1CCN(C(=O)c2cc3cc(NS(C)(=O)=O)ccc3[nH]2)CC1 ; cells: HT4lacZ-1/IIIB ; value: >15 µM
Cc1ccncc1-c1noc(C2=CC3(CCN(CC4CCCO4)CC3)c3ccccc32)n1 ; cells: A549 ; method: resazurin ; value: 31.5 µM
O=S(=O)(c1cccc2cnccc12)N1CCCNCC1 ; cells: U1 ; method: MTT ; value: 65 µM
O=c1[nH]c(=O)n([C@@H]2CO[C@H](CO)C2)cc1/C=C/Br ; cells: E6SM ; value: >400 µg/mL
NCC(=O)c1ccc(O)c(O)c1 ; cells: HEL ; value: ≥200 µg/mL
COc1ccc(-c2noc(C3=CC4(CCN(C(=O)C5CCCO5)CC4)c4ccccc43)n2)cc1 ; cells: A549 ; method: resazurin ; value: 37 µM
Nc1ccn([C@H]2CC[C@@H](CO)O2)c(=O)n1 ; cells: Macrophage ; value: 67.5 µM
Cc1ccc(-c2noc(C3=CC4(CCN(CC5CCCO5)CC4)c4ccccc43)n2)cn1 ; cells: A549 ; method: resazurin ; value: >100 µM
O=C(NC1N=C(c2ccccc2)c2ccccc2NC1=O)C(O)Cc1ccccc1 ; cells: HEP-2 ; value: 5.5 µM
COc1cc([C@@H]2c3cc4c(cc3[C@H](OC(C)=O)[C@@H]3COC(=O)[C@@H]23)OCO4)cc(O)c1O ; cells: P-388 ; value: 2.8 µM
CC1(C)CCC[C@]2(C)C3=CC4=CC(=O)C(=O)C=C4O[C@@]3(C)CC[C@@H]12 ; cells: J774A.1 macrophages ; method: resazurin ; value: 50.4 µg/mL
COC(=O)c1cc(O)c(O)c(O)c1 ; cells: HEL ; value: 63 µg/mL
C[C@H](CCCC(C)(C)O)[C@H]1CC[C@H]2[C@@H]3CC=C4C[C@@H](O)CC[C@]4(C)[C@H]3CC[C@]12C ; cells: Vero cells ; method: tetrazolium ; value: >128 µM
COc1cc(/C=C/C(=O)O)cc(O)c1O ; cells: McCoy fibroblast cells ; method: XTT ; value: 132.5 µg/mL
NCC[C@H](O)C(=O)N[C@@H]1C[C@H](N)[C@@H](O[C@H]2O[C@H](CN)[C@@H](O)[C@H](O)[C@H]2O)[C@H](O)[C@H]1O[C@H]1O[C@H](CO)[C@@H](O)[C@H](N)[C@H]1O ; cells: Vero cell ; method: MTT ; value: >62.5 µg/mL
CC1=CCC(C(C)C2=CC[C@]3(C)C(=C2C)C[C@]2(O)C=C4C=CC(=O)OC(C)(C)C4[C@H](O)CC23)OC1=O ; cells: BEL-7402 ; method: MTT ; value: 23.55 µM
NC(=O)c1csc(C2OC(CO)C(O)C2O)c1 ; cells: RAJI ; value: 8.7 µM
C[C@@H](CO)CCC[C@@H](C)[C@H]1[C@@H](O)C[C@H]2[C@@H]3CC=C4C[C@@H](O)CC[C@]4(C)[C@H]3CC[C@]12C ; cells: Vero cells ; method: tetrazolium ; value: >128 µM
COC(=O)NC1N=C(c2ccccc2)c2ccccc2NC1=O ; cells: HEP-2 ; value: 9.6 µM
CC(=O)c1c(O)c(C)c(O)c(Cc2c(O)c3c(c(C(=O)/C=C/c4ccccc4)c2O)OC(C)(C)C=C3)c1O ; cells: Akata ; method: MTS ; value: 1.005 µM
OCCN1CCN(CCCN2c3ccccc3Sc3ccc(Cl)cc32)CC1 ; cells: n4mBid ; method: luminescence ; value: 22 µM
COC(=O)[C@H]1C2CON=C2c2cc3c(cc2[C@H]1c1cc(OC)c(OC)c(OC)c1)OCO3 ; cells: P-388 ; value: 2.3 µM
COc1ccc(Nc2cc(C)nc3c2ccc2ccccc23)cc1OC ; cells: HepG2 ; method: cell count / luminescence ; value: 6.5 µM
O=c1c2ccccc2[se]n1-c1ccccc1 ; cells: n4mBid ; method: luminescence ; value: >30 µM
CC(C)CCC[C@@H](C)[C@H]1CC[C@H]2[C@@H]3CC(=O)[C@H]4C[C@@H](O)CC[C@]4(C)[C@H]3CC[C@]12C ; cells: Vero cells ; method: tetrazolium ; value: 92 µM
CCC[C@H](NC(=O)[C@@H]1[C@H]2CCC[C@H]2CN1C(=O)[C@@H](NC(=O)[C@@H](NC(=O)c1cnccn1)C1CCCCC1)C(C)(C)C)C(=O)C(=O)NC1CC1 ; cells: RFP-NLS-IPS ; value: >30 µM
C(=C\c1ccccc1)/CN1CCN(C(c2ccccc2)c2ccccc2)CC1 ; cells: n4mBid ; method: luminescence ; value: >30 µM
COc1cc([C@@H]2c3cc4c(cc3[C@H](O)[C@H]3COC(=O)[C@H]23)OCO4)cc(OC)c1OC ; cells: P-388 ; value: 0.012 µM
NC(N)=NC(=O)c1nc(Cl)c(N)nc1N ; cells: MDM ; value: >10 µM
Cc1cn([C@H]2C=C[C@@H](COP(=O)(O)O)O2)c(=O)[nH]c1=O ; cells: CEM/TK- ; method: MTT ; value: 411 µM
COc1ccc(-c2noc(C3=CC4(CCN(CC(=O)O)CC4)c4ccccc43)n2)cc1 ; cells: A549 ; method: resazurin ; value: >100 µM
NC12CC3CC(CC(C3)C1)C2 ; cells: MDCK cells ; method: MTS ; value: >500 µM
CC(=O)O[C@H]1CC[C@@]2(C)[C@@H](CC(=O)[C@@H]3[C@@H]2CC[C@]2(C)[C@@H]([C@H](C)CCCC(C)C)CC[C@@H]32)C1 ; cells: Vero cells ; method: tetrazolium ; value: >128 µM
NC(=O)c1c[se]c([C@@H]2O[C@H](CO)[C@@H](O)[C@H]2O)n1 ; cells: RAJI ; value: 1.6 µM
COc1ccc(-c2noc(C3=CC4(CCN(CCO)CC4)c4ccccc43)n2)cc1 ; cells: A549 ; method: resazurin ; value: 2 µM
COc1ccc2c(c1)C(OC(C)C)=C(C(N)=O)S2=O ; cells: OM-10.1 ; method: thymidine uptake / radiometric ; value: >10 µM
OCCN1CCN(CCCN2c3ccccc3Sc3ccc(C(F)(F)F)cc32)CC1 ; cells: n4mBid ; method: luminescence ; value: 17 µM
CC1(C)[C@@H]2CC[C@@]1(C)[C@H](NC(=O)/C=C/C=C/c1ccc3c(c1)OCO3)C2 ; cells: HEK293T ; method: MTT ; value: 198.9 µM
COc1ccc(-c2noc(C3=CC4(CCN(CC5CCCO5)CC4)c4ccccc43)n2)cc1 ; cells: A549 ; method: resazurin ; value: 68 µM
Cn1cc(C(=O)O)c(=O)c2cc(F)c(N3CC=C(c4ccccc4)CC3)c(C(F)(F)F)c21 ; cells: PBMC ; value: >4 µM
CC(=O)O[C@H]1CC[C@@]2(C)[C@@H](CC(=O)[C@@H]3[C@@H]2CC[C@]2(C)[C@@H]([C@H](C)CCCC(C)(C)O)CC[C@@H]32)C1 ; cells: Vero cells ; method: tetrazolium ; value: >128 µM
O=c1[nH]cnc2c1ncn2[C@H]1CC[C@@H](CO)O1 ; cells: HELA-CD4+ ; value: 1.9 µM
CC(C)CCC[C@@H](C)[C@H]1CC[C@H]2[C@@H]3C(=O)C=C4C[C@@H](O)CC[C@]4(C)[C@H]3CC[C@]12C ; cells: Vero cells ; method: tetrazolium ; value: 75 µM
CCCCN(CCCC)c1cccc(C2(O)CCN(CCCC(=O)c3ccc(F)cc3)CC2)c1 ; cells: COSA5 ; value: 10 µM
COc1cc([C@@H]2c3cc4c(cc3[C@H](OC(C)=O)[C@@H]3COC(=O)[C@@H]23)OCO4)cc2c1OC1(N3CCOCC3)CCCCC1O2 ; cells: A549 ; value: 8.66 µM
CC(C)CN(C[C@@H](O)[C@H](Cc1cc(F)cc(F)c1)NC(=O)O[C@H]1CCO[C@H]2OCC[C@H]21)S(=O)(=O)c1ccc2nc(NC(C)C)sc2c1 ; cells: KG-1-C ; method: MTT ; value: >100 µM
Nc1nc(-c2ccc(Br)cc2Br)c(SCC(=O)Nc2ccccc2N)s1 ; cells: MDCK cells ; method: MTS ; value: 42.26 µM
C1=C(c2nc(-c3ccccn3)no2)c2ccccc2C12CCN(CC1CCCO1)CC2 ; cells: A549 ; method: resazurin ; value: 56.3 µM
CC12OC[C@H]3O[C@H](C[C@@H]3N=[N+]=[N-])N1C(=O)NC(=O)[C@@]2(C)Br ; cells: CMBC ; value: 80 µM
CC(C)[C@H](NC(=O)OCc1ccccc1)C(=O)N[C@@H](Cc1ccccc1)[C@H](O)[C@H](Cc1ccccc1)NC(=O)[C@@H](NC(=O)OCc1cccnc1)C(C)C ; cells: H9 ; method: trypan blue ; value: 20 µM
COC(=O)[C@@H]1[C@H](c2cc(OC)c3nc4cc(Cl)c(Cl)cc4nc3c2)c2cc3c(cc2C2=NOC[C@@H]21)OCO3 ; cells: MEL-28 ; value: >18 µM
CCOC(=O)c1ccc2nc(-c3ccc(N4CCOCC4)cc3)[nH]c2c1 ; cells: Vero cell ; method: MTT ; value: >62.5 µg/mL
COc1cc([C@@H]2c3cc4c(cc3[C@H](OC(C)=O)[C@@H]3COC(=O)[C@@H]23)OCO4)cc2nc3cc(C)c(C)cc3nc12 ; cells: MEL-28 ; value: 4.8 µM
C=C1C2C[C@]3(O)C=C4C=CC(=O)OC(C)(C)C4[C@H](O)CC3[C@]2(C)CCC1(O)C(C)C1CC=C(C)C(=O)O1 ; cells: BEL-7402 ; method: MTT ; value: 25.36 µM
CCOC(=O)c1ccc2c(c1)nc(-c1ccc(C(F)(F)F)cc1)n2CCN1CCCC1=O ; cells: Vero cell ; method: MTT ; value: >62.5 µg/mL
CC(C)[C@H](NC(=O)OCc1ccccn1)C(=O)N[C@@H](Cc1ccccc1)[C@H](O)[C@@H](O)[C@H](Cc1ccccc1)NC(=O)[C@@H](NC(=O)OCc1ccccn1)C(C)C ; cells: H9 ; method: trypan blue ; value: >100 µM
O=c1[nH]c(=O)n([C@H]2C[C@H](O)[C@@H](CO)O2)cc1C12B3B4B5B6B(B3B1B42)B1B5C61 ; cells: LNCaP ; value: ~115 µM
CC(C)C12C=C3CC[C@H]4[C@](C)(C(=O)O)CCC[C@]4(C)[C@]3(CC1)OO2 ; cells: NCl-H187 ; method: absorbance ; value: 7.5 µg/mL
CC(C)[C@H](NC(=O)OCc1ccccc1)C(=O)NC(Cc1ccccc1)C(O)C(Cc1ccccc1)NC(=O)OC(C)(C)C ; cells: H9 ; method: trypan blue ; value: 20 µM
Nc1ccn([C@@H]2CC[C@H](CO)O2)c(=O)n1 ; cells: Macrophage ; value: 90 µM
O=C(CC(O)c1ccccc1)NC1N=C(c2ccccc2)c2ccccc2NC1=O ; cells: HEP-2 ; value: 1.9 µM
CCN(CCN(C)C)c1ccc(C(=O)CCCN2CCC(O)(c3ccc(Cl)cc3)CC2)cc1 ; cells: COSA5 ; value: 60 µM
CC1=CCC(C(C)C2=C(C)C3C[C@]4(O)C=C5C=CC(=O)OC(C)(C)C5[C@H](O)CC4[C@]3(C)C=C2)OC1=O ; cells: HL-60 ; method: MTT ; value: 19.56 µM
COc1ccc(-c2noc(C3=CC4(CCN(CC(N)=O)CC4)c4ccccc43)n2)cc1 ; cells: A549 ; method: resazurin ; value: 60.5 µM
O=C(NC1N=C(c2ccccc2)c2ccccc2NC1=O)c1ccccc1Cl ; cells: VERO ; value: 2 µM
CCCCNc1cccc(C2(O)CCN(CCCC(=O)c3ccc(F)cc3)CC2)c1 ; cells: COSA5 ; value: 140 µM

The first 5 rows once more:

compound | cells | method | value
C=C[C@@]1(C)CC(=O)[C@]2(O)[C@@]3(C)[C@@H](O)CCC(C)(C)[C@@H]3[C@H](O)[C@H](OC(C)=O)[C@@]2(C)O1 | n4mBid | luminescence | >30 µM
CC(C)CN(C[C@@H](O)[C@H](Cc1ccccc1)NC(=O)O[C@H]1CCOC1)S(=O)(=O)c1ccc(N)cc1 | TM-31 | MTT | >100 µM
C[C@@H]1[C@@H](NC(=O)/C=C/C=C/c2ccc3c(c2)OCO3)C[C@@H](C)C(C)(C)[C@H]1C | HEK293T | MTT | 249.8 µM
CC(C)(C)NC(=O)[C@@H]1CN(Cc2cccnc2)CCN1C[C@@H](O)C[C@@H](Cc1ccccc1)C(=O)N[C@H]1c2ccccc2C[C@H]1O | HCT-8 | - | >1000 µg/mL
CC(C)OC(=O)[C@H](C)N[P@](=O)(OC[C@H]1O[C@@H](n2ccc(=O)[nH]c2=O)[C@](C)(F)[C@@H]1O)Oc1ccccc1 | RFP-NLS-IPS | - | >10 µM